Results reported in paper PMC11556721, “A novel esterase regulates Klebsiella pneumoniae hypermucoviscosity and virulence” (PLOS Pathogens, 2024).
The exact form of at least one protein or probe is not confirmed.

Molecular target: rOmpR (phosphorylated with acetyl phosphate) (UniProt A6TF28)
Test: EMSA
Conditions: 25 mM acetyl phosphate, 1 mM MgCl2, poly(dI-dC), rOmpR 0-1 ug, 50 ng DNA; recombinant protein; label: none (GelRed stain); probe letters rebuilt from the primers and the genome

Sequence: CGCCGAAGCGATCCTGTTTTTTCTCATCATAATATTCCCTTATATAATCATTGGCGTAAATAAAACACGACAACAACCCTATTCCGTGCCGGTGCTAATAGCCGTATCCATACCGTTTGACGTCGCGGCGGCTGTTATTTTTGCGGTTAGACAAAAACAAAAAAACCTGAAGAAGACCATCTGCCTTGGCAGATAATCCTCTTCAGGTTTTGCCCGCGCATCGCGGTAGCAACCCTCATTCAGCCATTATTGGCCCGCATAAAACAAAAAACCTGATATCGCCCCCAGGAGCAATATCAGGTTTTGCCTGCTGTCGCAGTCACAATCCGTTT (double strand) [PVK055_3347 promoter fragment]
- binding result: binds
